Data as given in PubChem BioAssay AID1259414 (Drosophila RNAi Screening Center, 2018)
The deposit covers about 24,000 reagents; this is an unselected part of those that have a named target and a result. Of all reagents, about 1,210 (5%) were called active. 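Inactive calls also include excluded dsRNAs with several or no targets, genes unexpressed in JW18, and well A1, regardless of score.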 A number with no mark means an inactive call. Names joined by + are all predicted targets of the reagent.

Screen: 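Genome-wide screen for host control of endosymbiont load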 (primary screen)
Cells: Drosophila JW18 cells infected with Wolbachia
Knock-down reagent: long dsRNA against Drosophila genes, 0.25 µg dsRNA per well of a 384-well plate
Time to read-out: 5 days
Challenge: cells persistently infected with Wolbachia before knock-down; no added drug
Measured: 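Automated imaging of bacterial rRNA staining divided by host cell count, reported as plate-normalised robust z-score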
Scale: Wolbachia per cell robust z: higher = more Wolbachia per host cell than the plate typical
Active means: 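Hit when robust z is 1.5 or more, or -1.5 or less, in at least two of three replicates; excludes dsRNAs with several or no targets, genes not expressed in JW18 and well A1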

gene knocked down	DRSC id	Wolbachia per cell robust z, rep 1	Wolbachia per cell robust z, rep 2	Wolbachia per cell robust z, rep 3
CG6287	DRSC02947	0.122	-1.1	-1.48
CG6287	DRSC27507	-1.29	-0.392	-1.04
CG14641	DRSC12227	0.983	-2.45	1.73
CG14641	DRSC26839	0.827 (active)	1.98	3.87
Gpb5 (Glycoprotein hormone beta 5)	DRSC21241	0.398	-0.141	-0.451
CG43108	DRSC40517	0.648	-2.27	-1.21
Chsy (Chondroitin sulfate synthase)	DRSC20175	0.543	-0.368	-1.76
Chsy (Chondroitin sulfate synthase)	DRSC20176	-1.63	0.0105	-0.0671
Jon74E (Jonah 74E)	DRSC10617	0.261	-0.929	0.404
Jon74E (Jonah 74E)	DRSC23947	-1.63	1.16	-0.722
Kaz-m1 (Kazal-type protease inhibitor m1)	DRSC16990	0.378	0.523	-0.382
Tudor-SN (Tudor staphylococcal nuclease)	DRSC08581	0.582	0.265	1.02
Cnep1r2 (CTD nuclear envelope phosphatase 1 regulatory subunit 2)	DRSC10950	-0.724	-0.422	-0.896
CG42529 + Vtld	DRSC10102	0.115	-0.251	0.0165
CG14480	DRSC06452	-1.66 (active)	0.395	-1.78
mRpL16 (mitochondrial ribosomal protein L16)	DRSC18550	-0.509	-0.803	0.156
mRpL16 (mitochondrial ribosomal protein L16)	DRSC29510	0.205	-0.0587	1.94
CG9316	DRSC03195	0.608	0.615	-0.646
Pcyt2 (Phosphocholine cytidylyltransferase 2)	DRSC08531	-1.84 (active)	0.023	-1.51
Hex-t2 (Hexokinase testis 2)	DRSC22517	-0.678	-2.03	-1.41
Hex-t2 (Hexokinase testis 2)	DRSC28247	0.0452	1.16	0.715
TAF1C-like	DRSC04073	-0.0945	0.468	-0.65
CG14797	DRSC17955	0.399	-4.87	-0.757
CG14280	DRSC14761	-0.147	-2.08	-0.312
lz (lozenge)	DRSC18790	-1.07	-6.06	0.532
lz (lozenge)	DRSC22302	0.0231	0.318	-1.14
lz (lozenge)	DRSC25157	-0.168	0.053	0.0872
I-t (inhibitor-t)	DRSC16713	-0.363	-4.96	1.42
I-t (inhibitor-t)	DRSC41568	0.474	0.251	0.539
TwdlE (TweedleE)	DRSC02392	-1.36	-0.426	0.957
TwdlE (TweedleE)	DRSC24943	0.393	-0.175	0.497
CG31327	DRSC13019	-2	-1.68	-1.22

Part of the list above, set out differently:
gene knocked down,DRSC id,"Wolbachia per cell robust z, rep 1","Wolbachia per cell robust z, rep 2","Wolbachia per cell robust z, rep 3"
CG14280,DRSC14761,-0.147,-2.08,-0.312
lz (lozenge),DRSC18790,-1.07,-6.06,0.532
lz (lozenge),DRSC22302,0.0231,0.318,-1.14
lz (lozenge),DRSC25157,-0.168,0.053,0.0872
I-t (inhibitor-t),DRSC16713,-0.363,-4.96,1.42
I-t (inhibitor-t),DRSC41568,0.474,0.251,0.539
TwdlE (TweedleE),DRSC02392,-1.36,-0.426,0.957
TwdlE (TweedleE),DRSC24943,0.393,-0.175,0.497
CG31327,DRSC13019,-2,-1.68,-1.22

The listing continues:
gene knocked down	DRSC id	Wolbachia per cell robust z, rep 1	Wolbachia per cell robust z, rep 2	Wolbachia per cell robust z, rep 3
CG7264	DRSC10793	0.000715	0.767	0.387
CG7264	DRSC26046	0.842	0.872	0.0549
prtp (pretaporter)	DRSC19804	-2.48	-1.18	0.212
prtp (pretaporter)	DRSC22494	0.33	-0.261	-0.207
baz (bazooka)	DRSC20309	-3.76	-0.0976	-0.00163
baz (bazooka)	DRSC25558	-0.889	0.493	-7.39
baz (bazooka)	DRSC40791	-3.34 (active)	0.413	-1.58
Syt1 (Synaptotagmin 1)	DRSC00156	0.789	0.345	0.53
Syt1 (Synaptotagmin 1)	DRSC00157	-0.0317	-0.241	-0.0669
Syt1 (Synaptotagmin 1)	DRSC00158	-0.0137	0.33	1.07
Syt1 (Synaptotagmin 1)	DRSC00840	-6.68	0.244	-0.208
Syt1 (Synaptotagmin 1)	DRSC22077	1.07	0.942	-0.259
Syt1 (Synaptotagmin 1)	DRSC27456	0.509	-1.67	-5.56
Rim (Rab3 interacting molecule)	DRSC16224	0.496	0.441	-0.00604
Rim (Rab3 interacting molecule)	DRSC16226	-4.92	-1.48	-1.18
Rim (Rab3 interacting molecule)	DRSC16227	1.12	0.186	0.776
Rim (Rab3 interacting molecule)	DRSC22406	-1.51	-1.46	-1.21
RpL7 (Ribosomal protein L7)	DRSC03417	4.32 (active)	2.96	3.92
RpL7 (Ribosomal protein L7)	DRSC29340	1.03	1.53	0.285
sno (strawberry notch)	DRSC20378	1.22	-4.61	0.897
GluRIA (Glutamate receptor IA)	DRSC11176	0.273	-0.484	-2.84
Ilp1 (Insulin-like peptide 1)	DRSC10174	-3.8	-1.4	-4.52
CG14070	DRSC02373	1.36	-1.86	1
CAH6 (Carbonic anhydrase 6)	DRSC15505	-1.1	-2.54	-4.06
CG3104	DRSC25569	-0.947	-0.84	-1.49
Cyp12c1 (Cytochrome P450 12c1)	DRSC11125	-2.17	0.0197	0.0301
Cyp12c1 (Cytochrome P450 12c1)	DRSC24262	1.12	-0.425	-0.283
CG34136	DRSC38614	0.209	0.837	-0.256
sds22	DRSC17052	-0.158	-0.098	-8.88
phu (phurba tashi)	DRSC16390	0.674	-1.68	-1.93
CG8927	DRSC16458	0.257	-5.28	-0.648
CG8927	DRSC25722	0.43	-0.0845	0.68
Cox17 (Cytochrome c oxidase copper chaperone COX17)	DRSC20145	0.247	-3.09	0.0616
Hsp22 + CG4456	DRSC11187	-1.61	-1.76	-0.824
Hsp22 + CG4456	DRSC11192	-6.08	-6.41	0.87
unc80 (uncoordinated 80)	DRSC15329	0.757	-0.125	0.45
CG14676	DRSC12262	0.0607	-1.52	-0.94
CG14676	DRSC41512	0.752	0.0224	0.928
CG31467	DRSC16048	0.173	0.111	-0.105
CG31467	DRSC28533	-3.07 (active)	-3.37	-3.28
CG13082	DRSC02186	-0.0627	-0.069	-0.023
CG13082	DRSC26734	-2.23	1.25	-0.527
CG31459	DRSC13380	0.966	0.536	1.26
Tgt (tRNA-guanine transglycosylase)	DRSC00672	-0.944	0.353	-0.239
mth (methuselah)	DRSC08725	0.283	0.0178	0.178
mth (methuselah)	DRSC39165	-3.06	0.833	0.413
Polr3H (RNA polymerase III subunit H)	DRSC10817	0.717	-4.83	-1.27
fwe (flower)	DRSC10594	0.813	0.624	0.727
fwe (flower)	DRSC21400	0.248	0.251	0.0421
mus304 (mutagen-sensitive 304)	DRSC11372	1.16	1.81	0.155
rswl (roswell)	DRSC06923	-1.43 (active)	-2.41	-8.74
CG32376	DRSC22754	-1.97	-1.61	-1.03
eIF4B (eukaryotic translation initiation factor 4B)	DRSC37929	0.18	0.515	-1.53
CG13887	DRSC08357	0.556	-0.308	0.426
lbe (ladybird early)	DRSC16985	0.575	0.854	0.378
lbe (ladybird early)	DRSC23597	0.673	0.852	0.346
